Compound potency records, mixed from different reports. Data source: NIAID ChemDB in PubChem.

Common to all: cytotoxicity tests; cells: PBMC; measure: CC50

Conditions beyond the fields shown may differ between rows. CCn is the concentration with n% toxicity to the cells.

{"SMILES": "COC(=O)[C@H](C)NP(=O)(OC[C@@H]1C=C[C@H](n2cc(C)c(=O)[nH]c2=O)O1)Oc1ccc(Br)cc1", "value": ">10 µM"}
{"SMILES": "Nc1nc2c(ncn2[C@@H]2OC[C@H](/C=C/P(=O)(O)O)C23CC3)c(=O)[nH]1", "value": ">100 µM"}
{"SMILES": "Cc1cn([C@@H]2O[C@@H](CO)[C@H](O)C2(F)F)c(=O)[nH]c1=O", "value": ">100 µM"}
{"SMILES": "Nc1ncnc2c1ncn2[C@@H]1OC[C@H](CCP(=O)(O)O)C12CC2", "value": ">100 µM"}
{"SMILES": "CN(CCc1ccc2c(n1)NCCC2)C(=O)NCc1ccc(Cl)c(Cl)c1", "value": "6.7 µM"}
{"SMILES": "CCCN1C=Cc2nccc3cc(OC)c(OC)c1c23", "value": "4.3 µM"}
{"SMILES": "CCOC(=O)[C@H](C)NP(=O)(OC[C@@H]1OC[C@H](n2cnc3c(NC(C)=O)nc(N)nc32)O1)Oc1ccccc1", "value": ">100 µM"}
{"SMILES": "CN1CCN(CCSc2nc(-c3ccc4ccccc4c3)c3ccccc3n2)CC1", "value": "100 µM"}
{"SMILES": "O=C(NCCc1ccc2c(n1)NCCC2)Nc1cccc(-c2ccsc2)n1", "value": "5.4 µM"}
{"SMILES": "Nc1ccn([C@H]2S[C@@H](CO)C=C2F)c(=O)n1", "value": ">100 µM"}
{"SMILES": "CCOC(=O)[C@H](C)NP(=O)(OCC(F)(F)C(F)(F)Cn1cnc2c(N)ncnc21)Oc1ccccc1", "value": ">100 µM"}
{"SMILES": "CN1CCN(CCSc2nccc(-c3ccc(-c4cccs4)s3)n2)CC1", "value": "100 µM"}
{"SMILES": "O=c1[nH]cnc2c1ncn2[C@@H]1O[C@@H](CO)[C@H](O)C1(F)F", "value": ">100 µM"}
{"SMILES": "CC(C)C([NH3+])C(=O)OC(C)C1C/C=C/CCC(O)C(C)(C)C2CCC(C)C3(O2)O[B-]24OC3C(=O)OC3COC(CCCC(O)C(C)(C)C5CCC(C)C(O5)(O2)C(O4)C(=O)O1)C3", "value": "4.3 µM"}
{"SMILES": "NCC(N)=O", "value": ">500 µM"}
{"SMILES": "O=c1[nH]c(=O)n([C@H]2O[C@@H](CO)[C@H](O)C2(F)F)cc1I", "value": ">100 µM"}
{"SMILES": "Cc1cn([C@@H]2C[C@@H](F)[C@H](CO)O2)c(=O)[nH]c1=O", "value": ">100 µM"}
{"SMILES": "CCCCCCCCCCCCCC(=O)Nc1nc(N)nc2c1ncn2[C@H]1CO[C@@H](COP(=O)(N[C@@H](C)C(=O)OCC)Oc2ccccc2)O1", "value": "9.9 µM"}
{"SMILES": "Nc1ncnc2c1ncn2[C@@H]1O[C@H](COC2(c3ccccc3)c3ccccc3Oc3ccccc32)[C@@H](OC2(c3ccccc3)c3ccccc3Oc3ccccc32)[C@H]1OC1CCCCO1", "value": ">100 µM"}
{"SMILES": "COC(=O)[C@H](C)NP(=O)(OC[C@@H]1C=C[C@H](n2cc(C)c(=O)[nH]c2=O)O1)Oc1ccc(OC)cc1", "value": ">10 µM"}
{"SMILES": "O=c1[nH]c(=O)n([C@H]2O[C@@H](CO)[C@H](O)C2(F)F)cc1Cl", "value": ">100 µM"}
{"SMILES": "COc1cc2ccnc3c2c(c1OCCCCCCOc1c(OC)cc2ccnc4c2c1N(C)C=C4)N(C)C=C3", "value": "<1 µM"}
{"SMILES": "CN(CCCN)CCCNc1nc(-c2cccs2)cc(-c2cccs2)n1", "value": "100 µM"}
{"SMILES": "CC(C)OC(=O)[C@H](C)NP(=O)(OCC(F)(F)C(F)(F)C(F)(F)Cn1ccc(N)nc1=O)Oc1ccccc1", "value": ">100 µM"}
{"SMILES": "COc1cc2ccnc3c2c(c1OC)N(CCC(C)C)C=C3", "value": "2.6 µM"}
{"SMILES": "Nc1nc(=O)n([C@@H]2O[C@@H](CO)[C@H](O)C2(F)F)cc1F", "value": ">100 µM"}
{"SMILES": "CCCCCCCC/C=C\\CCCCCCCC(=O)Nc1nc(N)nc2c1ncn2[C@H]1CO[C@@H](COP(=O)(N[C@@H](C)C(=O)OCC)Oc2ccccc2)O1", "value": "10 µM"}
{"SMILES": "O=c1[nH]c(=O)n([C@@H]2O[C@@H](CO)[C@H](O)C2(F)F)cc1Cl", "value": ">100 µM"}
{"SMILES": "CN(C)CCSc1nc(-c2cccs2)cc(-c2cccs2)n1", "value": "100 µM"}
{"SMILES": "CCCCCCCCC[n+]1ccc2cc(OC)c(OC)c3c2c1C=CN3", "value": "3.2 µM"}
{"SMILES": "Cc1cn([C@@H]2CC[C@H](COC(=O)CCCCCCCCC(=O)OC[C@H]3O[C@@H](n4cc(C)c(=O)[nH]c4=O)C[C@@H]3F)O2)c(=O)[nH]c1=O", "value": ">1 µM"}
{"SMILES": "CN(C)CCSc1cccc(-c2cc(-c3cccc(SCCN(C)C)c3)nc(SCCN(C)C)n2)c1", "value": "10 µM"}
{"SMILES": "O=c1ccn(CC(F)(F)C(F)(F)C(F)(F)CO)c(=O)[nH]1", "value": ">100 µM"}
{"SMILES": "Cc1cn([C@@H]2CC[C@H](COC(=O)CCCCCCCCCCC(=O)OC[C@H]3O[C@@H](n4cc(C)c(=O)[nH]c4=O)C[C@@H]3N=[N+]=[N-])O2)c(=O)[nH]c1=O", "value": ">1 µM"}
{"SMILES": "CCCCCCCN1C=Cc2nccc3cc(OC)c(OC)c1c23", "value": "2.2 µM"}
{"SMILES": "Nc1ccn([C@H]2O[C@@H](CO)[C@H](O)C2(F)F)c(=O)n1", "value": ">100 µM"}
{"SMILES": "Nc1ncnc2c1ncn2CC(F)(F)C(F)(F)C(F)(F)CO", "value": ">100 µM"}
{"SMILES": "CCCCCC(=O)Nc1nc(N)nc2c1ncn2[C@H]1CO[C@@H](COP(=O)(N[C@@H](C)C(=O)OCC)Oc2ccccc2)O1", "value": ">100 µM"}
{"SMILES": "Nc1ccn([C@H]2C=C[C@@H](CO)O2)c(=O)n1", "value": "65 µM"}
{"SMILES": "CCCC(=O)Nc1nc(N)nc2c1ncn2[C@H]1CO[C@@H](COP(=O)(N[C@@H](C)C(=O)OCC)Oc2ccccc2)O1", "value": ">100 µM"}
{"SMILES": "COc1cc2cc[n+](CCC(C)C)c3c2c(c1OC)NC=C3", "value": "2.3 µM"}
{"SMILES": "Cc1cn(CC(F)(F)C(F)(F)CO)c(=O)[nH]c1=O", "value": ">100 µM"}

For reference, 4 entries again:

SMILES | value
Nc1ncnc2c1ncn2CC(F)(F)C(F)(F)C(F)(F)CO | >100 µM
Cc1cn([C@@H]2C[C@@H](F)[C@H](CO)O2)c(=O)[nH]c1=O | >100 µM
O=c1[nH]c(=O)n([C@@H]2O[C@@H](CO)[C@H](O)C2(F)F)cc1Cl | >100 µM
O=C(NCCc1ccc2c(n1)NCCC2)Nc1cccc(-c2ccsc2)n1 | 5.4 µM